Measurements taken from patent publication US12433964B2, “Antiviral and antibacterial disinfection aero-solution using edible food dyes” (Purdue Research Foundation, priority 2020, dated 2025).

Experiment: Detection of photogenerated singlet oxygen with turn-off fluorescent ABDA radical probe and NaN3 scavenger
Assay type: physicochemical
Settings: silk fabrics dyed with 50 μM dye solution, ABDA probe, green light 530 nm (FIGS. 3e, 3f)

| Compound | intensity of ABDA fluorescent peaks as irradiation time increases (singlet oxygen generation) |
| --- | --- |
| Erythrosine [FD&C RED No. 3] | gradually drops |
| O=C([O-])c1c(Cl)c(Cl)c(Cl)c(Cl)c1-c1c2cc(I)c(=O)c(I)c-2oc2c(I)c([O-])c(I)cc12.[Na+].[Na+] [FD&C RED No. 105, Rose Bengal] | gradually drops |
